A mixed list of measured activities; the numbers were collected in NIAID ChemDB.

Common to all: target-level tests; species: HIV-1; protein: Protease; measure: Ki

Blank or dashed fields: not listed here. Lines come from different laboratories, so protocols vary.

smiles,changes,method,setting,strain or isolate,value
COc1ccc2c(c1)OCCC/C=C\CN(C[C@@H](O)[C@H](Cc1ccccc1)NC(=O)O[C@H]1CO[C@H]3OCC[C@H]31)S2(=O)=O,-,substrate cleavage,-,-,0.00008 µM
CC(C)(CCCCCNC(=O)O[C@@H]1CCOC1)CN(C[C@@H](O)[C@H](Cc1ccccc1)NC(=O)O[C@H]1CO[C@H]2OCC[C@H]21)S(=O)(=O)c1ccc2c(c1)OCO2,-,fluorescence,-,-,<0.001 µM
COc1ccc(S(=O)(=O)N(CC(C)C)C[C@@H](O)CCN(CCC2CCCC2)C(=O)O[C@H]2CCOC2)cc1,-,HPLC,pH 4.7,IIIB,>3 µM
C=CCC1NC[C@H](Cc2ccccc2)N(CC(O)CN(CC2CCCC2)S(=O)(=O)c2ccc(OC)cc2)C1=O,-,-,-,-,>20 µM
COC(=O)CC1C[C@H](Cc2ccccc2)N(CC(O)CN(CC2CCCC2)S(=O)(=O)c2ccc(OC)cc2)C1=O,-,HPLC,-,-,0.12 µM
CC(C)CN(C[C@@H](O)[C@H](Cc1ccccc1)NC(=O)O[C@H]1CO[C@H]2OCC[C@H]21)S(=O)(=O)c1ccc(-c2cnc([C@H](C)O)o2)cc1,-,substrate cleavage / fluorescence,-,-,0.0000217 µM
Cc1ccccc1CNC(=O)C1N(C(=O)[C@@H](O)[C@H](Cc2cccc(F)c2)NC(=O)c2cccc(O)c2C)CC(F)(F)C1(C)C,-,-,-,-,<0.0001 µM
COc1ccc2c(c1)OCCCCCCCC(C)CN(C[C@@H](O)[C@H](Cc1ccccc1)NC(=O)O[C@H]1CO[C@H]3OCC[C@H]31)S2(=O)=O,-,substrate cleavage,-,-,0.00015 µM
CCC[C@H](C)CN(C[C@@H](O)[C@H](CCc1ccccc1)NC(=O)c1cccc(O)c1)S(=O)(=O)c1ccc2ncsc2c1,-,-,-,-,0.000046 µM
CC(C)OC(=O)NCCCC(C)(C)CN(C[C@@H](O)[C@H](Cc1ccccc1)NC(=O)O[C@H]1CO[C@H]2OCC[C@H]21)S(=O)(=O)c1ccc(N)cc1,-,fluorescence,-,-,<0.001 µM
C=CCCCCOc1cc(OC)ccc1S(=O)(=O)N(CC(C)CC=C)C[C@@H](O)[C@H](Cc1ccccc1)NC(=O)O[C@H]1CO[C@H]2OCC[C@H]21,-,substrate cleavage,-,-,0.0037 µM
CC(C)[C@H](NC(=O)[C@@H](NC(=O)[C@@H]1CCCN1C[C@H](Cc1ccccc1)NC(=O)[C@H](C)NC(=O)[C@H](C)NC(=O)[C@@H](N)CO)C(C)C)C(N)=O,-,HPLC,-,-,19 µM
COC(=O)CC1NC[C@H](Cc2ccccc2)N(CC(O)CN(CC2CCCC2)S(=O)(=O)c2ccc(OC)cc2)C1=O,-,HPLC,-,-,>20 µM
CC(C)CN(C[C@@H](O)[C@H](CCc1ccccc1)NC(=O)[C@@H]1CN(c2cccc(C(F)(F)F)c2)C(=O)O1)S(=O)(=O)c1ccc2c(c1)OCO2,-,-,-,-,0.000016 µM
CC(C)C[C@@H](NC(=O)[C@H](O)COS(=O)(=O)O)C(=O)N[C@@H]1C(=O)N[C@@H](CCCN=C(N)N)C(=O)N[C@H]2CC[C@H](O)N(C2=O)[C@@H](CC(C)C)C(=O)N[C@H](Cc2ccc(O)cc2)C(=O)N[C@H](C(C)C)C(=O)O[C@@H]1C,-,substrate cleavage,-,-,0.001 µM
COc1ccc(S(=O)(=O)N(CC(O)CN2C(=O)C(CC(N)=O)C[C@@H]2Cc2ccccc2)CC2CCCC2)cc1,-,-,-,-,0.03 µM
Cc1ccccc1CNC(=O)[C@H]1N(C(=O)[C@@H](O)[C@H](CCc2ccccc2)NC(=O)O[C@H]2CO[C@H]3OCC[C@H]32)CSC1(C)C,-,-,-,-,0.0000052 µM
CC(C)CN(C[C@@H](O)[C@H](Cc1ccccc1)NC(=O)O[C@H]1CO[C@H]2OCC[C@H]21)S(=O)(=O)c1ccc(C(N)=O)cc1,-,substrate cleavage / fluorescence,-,-,0.0000089 µM
COC(=O)c1cccc(CN2C(=O)C(=O)N(Cc3cccc(C(=O)OC)c3)[C@H](Cc3ccccc3)[C@H](O)[C@H]2CCc2ccccc2)c1,-,-,-,-,0.04 µM
CC(C)(CCCNC(=O)N1CCOCC1)CN(C[C@@H](O)[C@H](Cc1ccccc1)NC(=O)O[C@H]1CO[C@H]2OCC[C@H]21)S(=O)(=O)c1ccc2c(c1)OCO2,-,fluorescence,-,-,<0.001 µM
CC(C)CN(C[C@@H](O)[C@H](Cc1ccccc1)NC(=O)O[C@H]1CO[C@H]2OCC[C@H]21)S(=O)(=O)c1ccc2[nH]c(O)c(C=NCc3nc4ccccc4[nH]3)c2c1,L10 V32 V33 M46 M47 L63 A71 V82 I84 mutant,substrate cleavage,-,-,<0.001 µM
CC(C)(CCCNC(=O)OC1COCOC1)CN(C[C@@H](O)[C@H](Cc1ccccc1)NC(=O)O[C@H]1CO[C@H]2OCC[C@H]21)S(=O)(=O)c1ccc2c(c1)OCO2,-,fluorescence,-,-,<0.001 µM
O=C(N[C@H]1c2ccccc2C[C@H]1O)[C@H](Cc1ccccc1)C[C@H](O)CN1C(=O)[C@@H](Cc2ccccc2)C[C@@H]1Cc1ccccc1,-,-,-,-,0.000067 µM
CCN(/C=C1\C(=O)Nc2ccc(S(=O)(=O)N(CC(C)C)C[C@@H](O)[C@H](Cc3ccccc3)NC(=O)O[C@H]3CO[C@H]4OCC[C@H]43)cc21)CC,-,substrate cleavage,-,HXB2,<0.0001 µM
CC[C@H](C)[C@H](NC(=O)[C@H](C(C)C)[C@@H](O)[C@H](O)[C@H](CC1CCCCC1)NC(=O)[C@H](Cc1cnc[nH]1)NC(=O)[C@H](Cc1ccccc1)NC(=O)OC(C)(C)C)C(=O)NCc1ccccn1,-,-,-,-,0.003 µM
CNC(=O)OCCCC(C)(C)CN(C[C@@H](O)[C@H](Cc1ccccc1)NC(=O)O[C@H]1CO[C@H]2OCC[C@H]21)S(=O)(=O)c1cccc2c1OCO2,-,fluorescence,-,-,<0.001 µM
COc1ccc(S(=O)(=O)N(CC(O)CN2[C@@H](Cc3ccccc3)CN(Cc3ccccc3)S2(=O)=O)CC2CCCC2)cc1,-,HPLC,-,-,>10 µM
CC(C)(CCCCNC(=O)c1ccco1)CN(C[C@@H](O)[C@H](Cc1ccccc1)NC(=O)O[C@H]1CO[C@H]2OCC[C@H]21)S(=O)(=O)c1ccc2c(c1)OCO2,-,fluorescence,-,-,<0.001 µM
CC(C)[C@H](NC(=O)OCc1ccccc1)C(=O)N[C@@H](Cc1ccccc1)C(O)[C@H](Cc1ccccc1)NC(=O)[C@@H](NC(=O)OCc1ccccc1)C(C)C,-,HPLC,-,-,0.23 µM
CC(C)CN(C[C@@H](O)[C@H](Cc1ccccc1)NC(=O)O[C@H]1CO[C@H]2OCC[C@H]21)S(=O)(=O)c1ccc(-c2cnc([C@@H](C)O)o2)cc1,-,substrate cleavage / fluorescence,-,-,0.0000373 µM
CC(C)(CCCNS(C)(=O)=O)CN(C[C@@H](O)[C@H](Cc1ccccc1)NC(=O)O[C@H]1CO[C@H]2OCC[C@H]21)S(=O)(=O)c1cccc2c1OCO2,-,fluorescence,-,-,<0.001 µM
CC(C)CCNC(=O)[C@H](C(C)C)[C@@H](O)[C@H](O)C(=O)[C@H](CC(C)C)NC(=O)[C@H](Cc1cnc[nH]1)NC(=O)[C@H](Cc1ccccc1)NC(=O)OC(C)(C)C,-,-,-,-,0.36 µM
Cc1cccc(C)c1OCC(=O)N[C@@H](Cc1ccccc1)[C@@H](O)C[C@H](Cc1ccccc1)NC(=O)[C@@H](NS(=O)(=O)c1ccc(-c2cc(C(F)(F)F)n(C)n2)s1)C(C)C,-,substrate cleavage,-,-,0.038 µM
CCC(C)Nc1n[nH]c2ccc(S(=O)(=O)N(CC(C)C)C[C@@H](O)[C@H](Cc3ccccc3)NC(=O)O[C@H]3CO[C@H]4OCC[C@H]43)cc12,-,fluorescence,-,WT,<0.0001 µM
COC(=O)NCCCCC(C)(C)CN(C[C@@H](O)[C@H](Cc1ccccc1)NC(=O)O[C@H]1CO[C@H]2OCC[C@H]21)S(=O)(=O)c1ccc(N)cc1,-,fluorescence,-,-,<0.001 µM
COc1ccc(S(=O)(=O)N(CC(C)C)C[C@@H](O)[C@H](CCc2ccccc2)NC(=O)[C@@H]2CN(c3ccc(C(C)=O)cc3)C(=O)O2)cc1,-,-,-,-,0.000004 µM
COc1ccc(S(=O)(=O)NCCC(C)(C)CN(C[C@@H](O)[C@H](Cc2ccccc2)NC(=O)O[C@H]2CO[C@H]3OCC[C@H]32)S(=O)(=O)c2ccc3c(c2)OCO3)cc1,-,fluorescence,-,-,<0.001 µM
COc1ccc(S(=O)(=O)N(CC(C)C)C[C@@H](O)C[C@@H](CNCC(C)C)Cc2ccccc2)cc1,-,HPLC,pH 4.7,IIIB,5 µM
Cc1cccc(C)c1OCC(=O)N[C@@H](Cc1ccccc1)[C@@H](O)C[C@H](Cc1ccccc1)NC(=O)[C@@H](NS(=O)(=O)c1ccc(C(F)(F)F)cn1)C(C)C,-,substrate cleavage,-,-,0.0006 µM
CC(C)OC(=O)NCCC(C)(C)CN(C[C@@H](O)[C@H](Cc1ccccc1)NC(=O)O[C@H]1CO[C@H]2OCC[C@H]21)S(=O)(=O)c1cccc(N)c1,-,fluorescence,-,-,<0.001 µM
CC(C)CN(C[C@@H](O)[C@H](Cc1ccccc1)NC(=O)O[C@H]1CO[C@H]2OCC[C@H]21)S(=O)(=O)c1ccc2onc(CNC(C)C)c2c1,-,fluorescence,-,WT,<0.0001 µM
COc1ccc(S(=O)(=O)N(C[C@@H](O)[C@H](Cc2ccccc2)NC(=O)O[C@H]2CO[C@H]3OCC[C@H]32)CC(C)(C)CCCN)cc1,-,fluorescence,-,-,<0.001 µM
COc1ccc(S(=O)(=O)N(CC(O)CN2C(=O)C3(CCCC3)N(C)C[C@@H]2Cc2ccccc2)CC2CCCC2)cc1,-,HPLC,-,-,>20 µM
CCCCOC(=O)NCCCCC(C)(C)CN(C[C@@H](O)[C@H](Cc1ccccc1)NC(=O)O[C@H]1CO[C@H]2OCC[C@H]21)S(=O)(=O)c1ccc2c(c1)OCO2,-,fluorescence,-,-,<0.001 µM
CCC(C)[C@@H]1NC(=O)C(NCC(O)[C@@H]2Cc3ccc(cc3)OCCCCC(=O)N[C@@H](C(C)C)C(=O)N2)Cc2ccc(cc2)OCCCNC1=O,-,substrate cleavage,-,-,0.003 µM
CC(C)NC(=O)OCCCCC(C)(C)CN(C[C@@H](O)[C@H](Cc1ccccc1)NC(=O)O[C@H]1CO[C@H]2OCC[C@H]21)S(=O)(=O)c1ccc2c(c1)OCO2,-,fluorescence,-,-,<0.001 µM
COc1ccc(S(=O)(=O)N(CC(O)CN2C(=O)C(Cc3ccccc3)NC[C@@H]2Cc2ccccc2)CC2CCCC2)cc1,-,-,-,-,>20 µM
COCCOC(=O)NCCCC(C)(C)CN(C[C@@H](O)[C@H](Cc1ccccc1)NC(=O)O[C@H]1CO[C@H]2OCC[C@H]21)S(=O)(=O)c1ccc2c(c1)OCO2,-,fluorescence,-,-,<0.001 µM
COc1ccc(S(=O)(=O)N(CC(O)CN2C(=O)C(CCCO)C[C@@H]2Cc2ccccc2)CC2CCCC2)cc1,-,HPLC,-,-,>10 µM
CC(C)(CCCCN)CN(C[C@@H](O)[C@H](Cc1ccccc1)NC(=O)OC1COCOC1)S(=O)(=O)c1ccc(N)cc1,-,fluorescence,-,-,<0.001 µM
CC[C@@H](C[C@H](O)[C@H](Cc1ccccc1)NC(=O)COc1c(C)cccc1C)NC(=O)[C@@H](NS(=O)(=O)c1ccccc1)C(C)C,-,substrate cleavage,-,-,0.012 µM
CCCNC(=S)NCCCC(C)(C)CN(C[C@@H](O)[C@H](Cc1ccccc1)NC(=O)O[C@H]1CO[C@H]2OCC[C@H]21)S(=O)(=O)c1ccc2c(c1)OCO2,-,fluorescence,-,-,<0.001 µM
COc1ccc(S(=O)(=O)N(CC(O)CN2C(=O)C3(CCCC3)N(C)C[C@@H]2Cc2ccccc2)CC2CCCC2)cc1,-,-,-,-,>20 µM
CC(C)(CCCNS(C)(=O)=O)CN(C[C@@H](O)[C@H](Cc1ccccc1)NC(=O)O[C@H]1CO[C@H]2OCC[C@H]21)S(=O)(=O)c1cccc(N)c1,-,fluorescence,-,-,<0.001 µM
CC(C)(C)NC(=O)[C@@H]1C[C@@H]2CCCC[C@@H]2CN1C[C@@H](O)[C@H](Cc1ccccc1)NC(=O)[C@@H](NC(=O)Cc1cc2c(O)cccc2cn1)C(C)(C)S(C)(=O)=O,-,-,-,-,0.000151 µM
CCOC(=O)NCCCCC(C)(C)CN(C[C@@H](O)[C@H](Cc1ccccc1)NC(=O)O[C@H]1CO[C@H]2OCC[C@H]21)S(=O)(=O)c1cccc(N)c1,-,fluorescence,-,-,<0.001 µM
COc1cccc(S(=O)(=O)N(Cc2cccs2)C[C@@H](O)[C@H](CCc2ccccc2)NC(=O)c2cccc(F)c2C)c1,-,-,-,-,0.042 µM
CC(C)(CCCCOC(N)=O)CN(C[C@@H](O)[C@H](Cc1ccccc1)NC(=O)O[C@H]1CO[C@H]2OCC[C@H]21)S(=O)(=O)c1ccc2c(c1)OCO2,-,fluorescence,-,-,<0.001 µM
Cc1c(O)cccc1C(=O)N[C@@H](Cc1cccc(F)c1)[C@H](O)C(=O)N1CC(F)(F)C(C)(C)[C@H]1C(=O)NCC(F)(F)F,-,-,-,-,<0.0001 µM
CC(C)(CCCNC(=O)Oc1ccc(F)cc1)CN(C[C@@H](O)[C@H](Cc1ccccc1)NC(=O)O[C@H]1CO[C@H]2OCC[C@H]21)S(=O)(=O)c1ccc2c(c1)OCO2,-,fluorescence,-,-,<0.001 µM
CC[C@H](C)[C@H](NC(=O)[C@@H](C[C@H](O)[C@H](CC1CCCCC1)NC(=O)CC(C)(C)C)C(C)C)C(=O)NCc1ccccn1,-,-,-,-,0.07 µM

Repeating the final 3 entries:

smiles	changes	method	setting	strain or isolate	value
Cc1c(O)cccc1C(=O)N[C@@H](Cc1cccc(F)c1)[C@H](O)C(=O)N1CC(F)(F)C(C)(C)[C@H]1C(=O)NCC(F)(F)F	-	-	-	-	<0.0001 µM
CC(C)(CCCNC(=O)Oc1ccc(F)cc1)CN(C[C@@H](O)[C@H](Cc1ccccc1)NC(=O)O[C@H]1CO[C@H]2OCC[C@H]21)S(=O)(=O)c1ccc2c(c1)OCO2	-	fluorescence	-	-	<0.001 µM
CC[C@H](C)[C@H](NC(=O)[C@@H](C[C@H](O)[C@H](CC1CCCCC1)NC(=O)CC(C)(C)C)C(C)C)C(=O)NCc1ccccn1	-	-	-	-	0.07 µM